Patent publication US20230024461A1, “METHODS FOR DUAL DNA/PROTEIN TAGGING OF OPEN CHROMATIN” (Beth Israel Deaconess Medical Center, Inc., priority 2019, published 2023)

Test system: HEK293T nuclei
Experiment: iDAPT-MS quantitative mass spectrometry
Design: species or system human

B1: TP3: Tn5 transposase-AEAAAKEAAAKA linker-APEX2 peroxidase fusion, C-terminal FLAG; amino acid SEQ ID NO: 27 (protein)
chain: MITSALHRAADWAKSVFSSAALGDPRRTARLVNVAAQLAKYSGKSITISSEGSKAMQEGAYRFIRNPNVSAEAIRKAGAMQTVKLAQEFPELLAIEDTTSLSYRHQVAEELGKLGSIQDKSRGWWVHSVLLLEATTFRTVGLLHQEWWMRPDDPADADEKESGKWLAAAATSRLRMGSMMSNVIAVCDREADIHAYLQDKLAHNERFVVRSKHPRKDVESGLYLYDHLKNQPELGGYQISIPQKGVVDKRGKRKNRPARKASLSLRSGRITLKQGNITLNAVLAEEINPPKGETPLKWLLLTSEPVESLAQALRVIDIYTHRWRIEEFHKAWKTGAGAERQRMEEPDNLERMVSILSFVAVRLLQLRESFTPPQALRAQGLLKEAEHVESQSAETVLTPDECQLLGYLDKGKRKRKEKAGSLQWAYMAIARLGGFMDSKRTGIASWGALWEGWEALQSKLDGFLAAKDLMAQGIKIAEAAAKEAAAKAGKSYPTVSADYQDAVEKAKKKLRGFIAEKRCAPLMLRLAFHSAGTFDKGTKTGGPFGTIKHPAELAHSANNGLDIAVRLLEPLKAEFPILSYADFYQLAGVVAVEVTGGPKVPFHPGREDKPEPPPEGRLPDPTKGSDHLRDVFGKAMGLTDQDIVALSGGHTIGAAHKERSGFEGPWTSNPLIFDNSYFTELLSGEKEGLLQLPSDKALLSDPVFRPLVDKYAADEDAFFADYAEAHQKLSELGFADADYKDDDDK
modifications: C-terminal FLAG
With B1 as the molecule, how does the “significant proteins enriched versus APEX2 alone” value (HEK293T nuclei, FDR threshold of 5%) read?
The value was 1,450 proteins.

And the “CisBP transcription factors significantly enriched” value (HEK293T, iDAPT-MS)?
The value was 79 transcription factors.
